Anti-infective test results gathered from many reports (values: NIAID ChemDB through PubChem).

Common to all: tests on isolated targets; species: HIV-1; protein: Reverse transcriptase; measure: inhibition

Rows are shuffled and stem from different studies. An empty or dashed field is not shown. Percent inhibition refers to the dose given; in toxicity tests it is the harm to the cells.

SMILES,changes,strain,dose,method,result
COc1cccc2cc(CN(C(=O)c3ccccc3)C3CCCCC3)c(=O)[nH]c12,,,20 µM,RT activity / absorbance,-19.4%
CC(O)CCCCC[C@H]1CCCCCC[C@@H](C)NC(N)=[NH+]1.F[B-](F)(F)F,,,10 µM,RT activity / radiometric,0%
O=C(CCn1c(=O)[nH]c2ccccc2c1=O)N[C@@H](Cc1c[nH]c2ccccc12)C(=O)O,,,100 µM,nucleotide incorporation / fluorescence,0%
O=C(O)c1cc(NS(=O)(=O)c2cccc3c(S(=O)(=O)Nc4cc(C(=O)O)c(O)c(S(=O)(=O)O)c4)cccc23)cc(S(=O)(=O)O)c1O,,,50 µM,RT activity,25%
CCN1c2ncccc2C(=O)Nc2c(C3OCCCO3)cc(-c3cccc(OC)c3)nc21,RT-Y181C,,7 µM,,1%
N#CC1C=Cc2ccccc2N1C(=O)OCCCl,,,50 µM,nucleotide incorporation,≤30%
CCOc1ccccc1CCNC(=S)Nc1nccs1,,,10 µg/mL,nucleotide incorporation,33%
O=C(CCCCCCC(=O)Nc1ccc(S(=O)(=O)O)c2cccc(S(=O)(=O)O)c12)Nc1ccc(S(=O)(=O)O)c2cccc(S(=O)(=O)O)c12,,,50 µM,RT activity,16%
CCNc1cccnc1N1CCN(Cc2ccc(OC)cc2)CC1,,,100 µM,nucleotide incorporation,40%
COc1ccc(-c2n[nH]c(C)c2Oc2ccc3c(c2)OCCCO3)c(O)c1,,,100 µM,nucleotide incorporation / fluorescence,28%
CC(C)Nc1cccnc1N(C)[C@H]1CCCC[C@@H]1N(C)C(=O)c1cc2ccccc2[nH]1,,,100 µM,nucleotide incorporation,0%
Cc1ccc2c(c1)[C@](O)(CC(=O)c1ccccc1O)C(=O)N2,,,100 µM,nucleotide incorporation / fluorescence,12%
N#CC1C=Cc2ccccc2N1C(=O)c1ccco1,,,50 µM,nucleotide incorporation,≤30%
O=C(NCCc1ccccc1)Nc1ccccc1,,,1 µg/mL,nucleotide incorporation,16%
COc1ccc2[nH]c(=O)c(CN(C(=O)c3ccccc3)C3CCCCC3)cc2c1,,,20 µM,RT activity / absorbance,5.9%
Nc1ncnc2c1ncn2[C@@H]1O[C@H](COP(=O)([O-])O[C@@H]2C[C@@H](COP(=O)([O-])O[C@@H]3C[C@@H](COP(=O)([O-])O)O[C@H]3n3cnc4c(N)ncnc43)O[C@H]2n2cnc3c(N)ncnc32)[C@@H](O)[C@H]1O,,IIIB,10 µM,,13%
CCN1c2ncccc2C(=O)Nc2c(C=O)cc(-c3cccc(OC)c3)nc21,RT-Y181C,,63 µM,,1%
Cc1nnc(NC(=O)NCCc2ccccc2)s1,,,0.1 µg/mL,nucleotide incorporation,1%
CCN1c2ncccc2C(=O)Nc2c(C=O)cc(=O)[nH]c21,RT-Y181C,,6 µM,,1%
C=CCN1C(=O)c2ccnnc2Oc2ccc(OC)cc21,,,330 µM,ELISA,59%
COc1ccc2[nH]c(=O)c(CNC3CCCCC3)cc2c1,,,20 µM,RT activity / absorbance,-11.4%
CC(C)=CCc1c(O[C@@H]2O[C@H](CO)[C@@H](O)[C@H](O)[C@H]2O)cc2c(c1O)C(=O)[C@H](O)[C@@H](c1ccc(O)c(O)c1)O2,,,200 µg/mL,nucleotide incorporation / radiometric,0%
Cc1cc(C)c(S(=O)(=O)Oc2ccc3cccc(S(=O)(=O)O)c3c2)c(C)c1S(=O)(=O)Oc1ccc2cccc(S(=O)(=O)O)c2c1,,,50 µM,RT activity,77%
COc1ccc2c(c1)C=CC(C#N)N2C(=O)OCC(C)C,,,50 µM,nucleotide incorporation,83%
O=C(CCCCCCCCCCC(=O)Nc1ccc(S(=O)(=O)O)c2cccc(S(=O)(=O)O)c12)Nc1ccc(S(=O)(=O)O)c2cccc(S(=O)(=O)O)c12,,,50 µM,RT activity,84%
COc1ccc(-c2nc3c(=O)n(C)c(=O)[nH]c3n2CCc2ccccc2)cc1,,,100 µM,nucleotide incorporation / fluorescence,4%
CC1=C2CC[C@@H](C)[C@]3(C[C@@H](c4ccoc4)OC3=O)[C@H]2CCC1=O,,,100 µM,RT activity / luminescence,20%
CC(C)=CCc1c(O[C@@H]2O[C@H](CO)[C@@H](O)[C@H](O)[C@H]2O)cc2oc(-c3ccc(O)c(O)c3)c(O)c(=O)c2c1O,,,200 µg/mL,nucleotide incorporation / radiometric,34%
CC(=O)OC(C)CCCCC[C@H]1CCCCCC[C@@H](C)NC(N)=[NH+]1.F[B-](F)(F)F,,,10 µM,RT activity / radiometric,5.9%
COc1cccc2cc(CNC3CCCCC3)c(=O)[nH]c12,,,20 µM,RT activity / absorbance,-32.8%
O=C(CCCCCCCCC(=O)Nc1cc(S(=O)(=O)O)cc2cc(S(=O)(=O)O)cc(O)c12)Nc1cc(S(=O)(=O)O)cc2cc(S(=O)(=O)O)cc(O)c12,,,50 µM,RT activity,100%
CC(C)OC(=O)N1c2ccccc2C=CC1C#N,,,50 µM,nucleotide incorporation,89.1%
CCCCCCCCCCCCCCCC(=O)Nc1ccc(S(=O)(=O)O)c2cccc(S(=O)(=O)O)c12,,,50 µM,RT activity,99.84%
CN1C(=O)c2ccnnc2Oc2ccccc21,,,330 µM,ELISA,33%
COc1ccc2c(c1)C=CC(C#N)N2C(=O)OC(C)C,,,50 µM,nucleotide incorporation,78.6%
O=C(NCCc1ccccc1)Nc1nncs1,,,10 µg/mL,nucleotide incorporation,14%
CC(C)(O)CCc1c(O[C@@H]2O[C@H](CO)[C@@H](O)[C@H](O)[C@H]2O)cc2oc(-c3ccc(O)c(O)c3)c(O)c(=O)c2c1O,,,200 µg/mL,nucleotide incorporation / radiometric,18.5%
O=c1[nH]c(SCc2cn[nH]n2)nc(-c2ccccc2)c1Cl,,,100 µg/mL,RT activity / absorbance,67.84%
O=C(O)CCc1ccnc2c1NC(=O)c1cccnc1N2C1CC1,,WT,2 µM,,1%
Nc1ccc(S(=O)(=O)O)c2ccccc12,,,50 µM,RT activity,12%
CCN1c2ncccc2C(=O)Nc2c(COCc3ccccc3)cc(OC)nc21,,WT,42 µM,,1%
C/C1=C\C=C\C2(C)C=C(CO[C@H]3O[C@H](CO)[C@H](O)[C@H](O)[C@H]3O)C(C)CC23OC([O-])C(C3=O)C(O)/C=C/C2(C)C=C(C=O)C(C)CC23OC([O-])C(C3=O)C(O)/C(C)=C/C=C/C2C=C(CO[C@H]3O[C@H](CO)[C@H](O)[C@H](O)[C@H]3O)C(C)CC23OC([O-])C(C3=O)C(O)/C=C/C2(C)C=C(C=O)C(C)CC23OC([O-])C(C3=O)C1O,,IIIB,4 µg/mL,RT activity,84.3%
O=C(NCCc1ccccc1)Nc1nc2ccccc2s1,,,1 µg/mL,nucleotide incorporation,36%
CC1(C)CCC[C@]2(C)[C@H]3C[C@@H](C4=CCOC4=O)CC3=CC[C@@H]12,,,200 µg/mL,RT activity / fluorescence,34.6%
CC(CCCCC[C@H]1CCCCCC[C@@H](C)NC(N)=[NH+]1)O[Si](c1ccccc1)(c1ccccc1)C(C)(C)C.F[B-](F)(F)F,,,40 µM,RT activity / radiometric,77.6%
O=S(=O)(O)c1cc(S(=O)(=O)O)c2cc(NS(=O)(=O)c3ccc(-c4ccc(S(=O)(=O)Nc5ccc6cc(S(=O)(=O)O)cc(S(=O)(=O)O)c6c5)cc4)cc3)ccc2c1,,,50 µM,RT activity,72%
Nc1ncnc2c1ncn2C1OC(CO)CC1OP(=O)(O)OCC1CC(OP(=O)(O)OCC2OC(n3cnc4c(N)ncnc43)C(O)C2O)C(n2cnc3c(N)ncnc32)O1,,IIIB,10 µM,,16%
CCCCCCCCCCCCCCc1sc(NC(=O)NCCc2ccccc2)nc1-c1ccc(Cl)cc1,,,10 µg/mL,nucleotide incorporation,1%
CCCCOC(=O)N1c2ccc(NC(C)=O)cc2C=CC1C#N,,,50 µM,nucleotide incorporation,≤30%
COc1ccccc1-c1cn[nH]c1-c1ccc(O)cc1O,,,100 µM,nucleotide incorporation / fluorescence,39%
CCCCCC(=O)OCCCC[C@H]1CCCCCC[C@@H](C)NC(N)=[NH+]1,,,40 µM,RT activity / radiometric,12.5%
CCOC(=O)Nc1ccc2c(c1)C=CC(C#N)N2C(=O)OCC,,,50 µM,nucleotide incorporation,≤30%
C[C@@H]1CCCCCC[C@H](CCCCO[Si](C)(C)C(C)(C)C)[NH+]=C(N)N1,,,40 µM,RT activity / radiometric,69.6%
Nc1ncnc2c1ncn2[C@@H]1O[C@H](COP(=O)([O-])O[C@@H]2C[C@@H](COP(=O)([O-])O[C@@H]3C[C@@H](COP(=O)([O-])O)O[C@H]3n3cnc4c(N)ncnc43)O[C@H]2n2cnc3c(N)ncnc32)C[C@H]1O,,IIIB,10 µM,,21%
CCCN1C(=O)c2ccnnc2Oc2c(C)cc(C)cc21,,,330 µM,ELISA,92%
CCN1c2ncccc2C(=O)Nc2c(COc3ccccc3)cc(=O)[nH]c21,RT-Y181C,,20 µM,,1%
COC(=O)N1c2ccccc2C=CC1C#N,,,50 µM,nucleotide incorporation,36.8%

The first 5 rows once more:

SMILES | changes | strain | dose | method | result
COc1cccc2cc(CN(C(=O)c3ccccc3)C3CCCCC3)c(=O)[nH]c12 |  |  | 20 µM | RT activity / absorbance | -19.4%
CC(O)CCCCC[C@H]1CCCCCC[C@@H](C)NC(N)=[NH+]1.F[B-](F)(F)F |  |  | 10 µM | RT activity / radiometric | 0%
O=C(CCn1c(=O)[nH]c2ccccc2c1=O)N[C@@H](Cc1c[nH]c2ccccc12)C(=O)O |  |  | 100 µM | nucleotide incorporation / fluorescence | 0%
O=C(O)c1cc(NS(=O)(=O)c2cccc3c(S(=O)(=O)Nc4cc(C(=O)O)c(O)c(S(=O)(=O)O)c4)cccc23)cc(S(=O)(=O)O)c1O |  |  | 50 µM | RT activity | 25%
CCN1c2ncccc2C(=O)Nc2c(C3OCCCO3)cc(-c3cccc(OC)c3)nc21 | RT-Y181C |  | 7 µM |  | 1%